Several values for one entry are separate records, joined by “and”; a condition that tells them apart may be missing. Equal entries are not always repeated.

Sequences of proteins named here, by UniProt entry; tags and fusion partners are left off. Residues count along the entry.
UniProt Q15858, whole entry: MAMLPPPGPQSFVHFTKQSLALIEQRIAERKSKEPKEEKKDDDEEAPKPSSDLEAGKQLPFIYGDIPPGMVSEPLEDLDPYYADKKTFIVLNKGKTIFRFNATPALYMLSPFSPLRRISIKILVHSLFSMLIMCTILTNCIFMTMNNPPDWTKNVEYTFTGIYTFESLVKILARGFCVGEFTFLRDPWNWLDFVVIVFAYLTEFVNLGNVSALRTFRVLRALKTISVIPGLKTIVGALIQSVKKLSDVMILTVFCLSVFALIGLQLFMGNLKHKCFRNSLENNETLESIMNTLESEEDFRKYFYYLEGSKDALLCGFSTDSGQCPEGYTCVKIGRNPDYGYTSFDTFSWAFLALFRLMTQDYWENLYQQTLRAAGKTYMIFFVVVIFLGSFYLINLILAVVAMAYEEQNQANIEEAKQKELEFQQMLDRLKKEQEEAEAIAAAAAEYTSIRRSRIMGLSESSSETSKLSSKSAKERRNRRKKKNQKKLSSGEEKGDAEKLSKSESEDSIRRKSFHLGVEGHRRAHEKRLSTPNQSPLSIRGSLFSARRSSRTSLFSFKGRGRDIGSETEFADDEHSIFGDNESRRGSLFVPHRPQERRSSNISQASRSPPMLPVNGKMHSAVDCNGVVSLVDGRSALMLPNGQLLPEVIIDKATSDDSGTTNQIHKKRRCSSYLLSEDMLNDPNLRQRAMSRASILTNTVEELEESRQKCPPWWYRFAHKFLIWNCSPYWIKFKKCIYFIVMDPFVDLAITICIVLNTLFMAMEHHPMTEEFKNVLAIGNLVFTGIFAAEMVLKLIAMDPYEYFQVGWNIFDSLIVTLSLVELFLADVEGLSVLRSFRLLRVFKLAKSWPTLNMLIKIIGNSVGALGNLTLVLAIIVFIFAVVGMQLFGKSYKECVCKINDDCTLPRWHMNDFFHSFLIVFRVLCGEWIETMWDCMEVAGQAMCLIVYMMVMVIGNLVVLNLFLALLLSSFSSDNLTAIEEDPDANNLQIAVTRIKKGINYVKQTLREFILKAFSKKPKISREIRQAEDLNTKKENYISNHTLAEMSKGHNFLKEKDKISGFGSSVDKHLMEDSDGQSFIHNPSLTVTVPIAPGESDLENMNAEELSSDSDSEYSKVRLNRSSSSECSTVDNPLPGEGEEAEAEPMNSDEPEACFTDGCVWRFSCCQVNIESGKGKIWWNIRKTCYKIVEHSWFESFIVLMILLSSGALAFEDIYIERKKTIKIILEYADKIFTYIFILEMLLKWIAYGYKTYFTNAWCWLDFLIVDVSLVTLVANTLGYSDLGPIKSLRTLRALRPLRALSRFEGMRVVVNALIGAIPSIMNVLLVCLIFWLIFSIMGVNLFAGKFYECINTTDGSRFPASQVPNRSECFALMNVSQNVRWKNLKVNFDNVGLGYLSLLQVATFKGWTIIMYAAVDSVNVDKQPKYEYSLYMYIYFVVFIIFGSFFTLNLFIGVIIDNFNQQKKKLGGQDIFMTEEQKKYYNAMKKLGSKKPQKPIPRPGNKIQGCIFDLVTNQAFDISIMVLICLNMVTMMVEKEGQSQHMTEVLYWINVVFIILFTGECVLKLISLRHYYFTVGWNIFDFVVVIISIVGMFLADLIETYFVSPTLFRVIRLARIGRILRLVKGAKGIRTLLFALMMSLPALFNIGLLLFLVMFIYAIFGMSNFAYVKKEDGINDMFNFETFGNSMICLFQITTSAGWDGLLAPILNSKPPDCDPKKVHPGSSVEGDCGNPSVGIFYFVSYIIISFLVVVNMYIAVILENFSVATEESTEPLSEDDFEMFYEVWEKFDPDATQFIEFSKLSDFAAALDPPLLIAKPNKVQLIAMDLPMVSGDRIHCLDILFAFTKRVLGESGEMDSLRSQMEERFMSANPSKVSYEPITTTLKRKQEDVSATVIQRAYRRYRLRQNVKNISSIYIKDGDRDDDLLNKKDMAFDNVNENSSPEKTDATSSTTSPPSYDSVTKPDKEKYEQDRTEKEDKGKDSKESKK
UniProt P35499, whole entry: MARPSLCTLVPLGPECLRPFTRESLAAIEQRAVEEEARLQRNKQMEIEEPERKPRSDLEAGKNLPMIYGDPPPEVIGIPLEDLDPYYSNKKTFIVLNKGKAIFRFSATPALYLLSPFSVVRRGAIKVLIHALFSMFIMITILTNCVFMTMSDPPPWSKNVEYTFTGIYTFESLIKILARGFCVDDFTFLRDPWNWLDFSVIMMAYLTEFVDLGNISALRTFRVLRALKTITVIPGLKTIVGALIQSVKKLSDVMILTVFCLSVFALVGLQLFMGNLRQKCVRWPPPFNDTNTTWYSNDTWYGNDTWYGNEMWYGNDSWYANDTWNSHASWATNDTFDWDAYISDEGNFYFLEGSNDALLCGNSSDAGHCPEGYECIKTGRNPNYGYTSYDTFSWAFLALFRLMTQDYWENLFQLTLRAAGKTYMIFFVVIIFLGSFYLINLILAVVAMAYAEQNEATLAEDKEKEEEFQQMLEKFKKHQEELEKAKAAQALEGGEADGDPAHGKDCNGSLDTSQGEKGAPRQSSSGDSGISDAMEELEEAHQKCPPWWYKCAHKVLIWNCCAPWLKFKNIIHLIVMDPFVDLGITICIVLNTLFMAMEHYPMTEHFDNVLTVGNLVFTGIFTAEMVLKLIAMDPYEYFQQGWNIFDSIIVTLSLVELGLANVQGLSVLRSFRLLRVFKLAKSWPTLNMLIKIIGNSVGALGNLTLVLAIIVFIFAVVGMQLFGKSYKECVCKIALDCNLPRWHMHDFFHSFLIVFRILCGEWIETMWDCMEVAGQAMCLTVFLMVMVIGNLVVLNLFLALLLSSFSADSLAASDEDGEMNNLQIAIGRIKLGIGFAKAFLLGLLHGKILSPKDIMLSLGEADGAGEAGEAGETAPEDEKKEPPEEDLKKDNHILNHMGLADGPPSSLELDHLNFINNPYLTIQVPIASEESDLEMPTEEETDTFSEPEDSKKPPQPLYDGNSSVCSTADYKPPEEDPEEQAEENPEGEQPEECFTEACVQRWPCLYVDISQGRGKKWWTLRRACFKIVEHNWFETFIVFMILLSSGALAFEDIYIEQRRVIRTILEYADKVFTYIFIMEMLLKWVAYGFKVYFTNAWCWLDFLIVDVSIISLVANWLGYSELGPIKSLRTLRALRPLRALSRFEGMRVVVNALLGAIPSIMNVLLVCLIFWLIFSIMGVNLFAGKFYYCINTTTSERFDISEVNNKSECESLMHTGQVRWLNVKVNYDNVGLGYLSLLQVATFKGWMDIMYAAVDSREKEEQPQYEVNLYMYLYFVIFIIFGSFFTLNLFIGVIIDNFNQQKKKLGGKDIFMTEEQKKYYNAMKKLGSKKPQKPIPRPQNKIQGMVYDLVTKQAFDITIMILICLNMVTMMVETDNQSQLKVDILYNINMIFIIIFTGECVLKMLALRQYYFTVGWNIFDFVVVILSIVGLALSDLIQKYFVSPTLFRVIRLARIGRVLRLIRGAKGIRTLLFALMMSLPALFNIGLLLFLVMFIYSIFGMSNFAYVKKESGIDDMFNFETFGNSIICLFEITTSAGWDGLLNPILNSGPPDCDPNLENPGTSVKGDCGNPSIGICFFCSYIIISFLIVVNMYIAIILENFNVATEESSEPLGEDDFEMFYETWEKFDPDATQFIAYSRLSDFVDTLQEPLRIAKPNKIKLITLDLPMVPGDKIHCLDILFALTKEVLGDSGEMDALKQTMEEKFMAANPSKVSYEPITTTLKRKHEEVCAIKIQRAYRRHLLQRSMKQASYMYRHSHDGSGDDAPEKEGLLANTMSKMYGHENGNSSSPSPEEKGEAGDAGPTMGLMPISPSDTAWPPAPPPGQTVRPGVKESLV
UniProt Q14524, whole entry: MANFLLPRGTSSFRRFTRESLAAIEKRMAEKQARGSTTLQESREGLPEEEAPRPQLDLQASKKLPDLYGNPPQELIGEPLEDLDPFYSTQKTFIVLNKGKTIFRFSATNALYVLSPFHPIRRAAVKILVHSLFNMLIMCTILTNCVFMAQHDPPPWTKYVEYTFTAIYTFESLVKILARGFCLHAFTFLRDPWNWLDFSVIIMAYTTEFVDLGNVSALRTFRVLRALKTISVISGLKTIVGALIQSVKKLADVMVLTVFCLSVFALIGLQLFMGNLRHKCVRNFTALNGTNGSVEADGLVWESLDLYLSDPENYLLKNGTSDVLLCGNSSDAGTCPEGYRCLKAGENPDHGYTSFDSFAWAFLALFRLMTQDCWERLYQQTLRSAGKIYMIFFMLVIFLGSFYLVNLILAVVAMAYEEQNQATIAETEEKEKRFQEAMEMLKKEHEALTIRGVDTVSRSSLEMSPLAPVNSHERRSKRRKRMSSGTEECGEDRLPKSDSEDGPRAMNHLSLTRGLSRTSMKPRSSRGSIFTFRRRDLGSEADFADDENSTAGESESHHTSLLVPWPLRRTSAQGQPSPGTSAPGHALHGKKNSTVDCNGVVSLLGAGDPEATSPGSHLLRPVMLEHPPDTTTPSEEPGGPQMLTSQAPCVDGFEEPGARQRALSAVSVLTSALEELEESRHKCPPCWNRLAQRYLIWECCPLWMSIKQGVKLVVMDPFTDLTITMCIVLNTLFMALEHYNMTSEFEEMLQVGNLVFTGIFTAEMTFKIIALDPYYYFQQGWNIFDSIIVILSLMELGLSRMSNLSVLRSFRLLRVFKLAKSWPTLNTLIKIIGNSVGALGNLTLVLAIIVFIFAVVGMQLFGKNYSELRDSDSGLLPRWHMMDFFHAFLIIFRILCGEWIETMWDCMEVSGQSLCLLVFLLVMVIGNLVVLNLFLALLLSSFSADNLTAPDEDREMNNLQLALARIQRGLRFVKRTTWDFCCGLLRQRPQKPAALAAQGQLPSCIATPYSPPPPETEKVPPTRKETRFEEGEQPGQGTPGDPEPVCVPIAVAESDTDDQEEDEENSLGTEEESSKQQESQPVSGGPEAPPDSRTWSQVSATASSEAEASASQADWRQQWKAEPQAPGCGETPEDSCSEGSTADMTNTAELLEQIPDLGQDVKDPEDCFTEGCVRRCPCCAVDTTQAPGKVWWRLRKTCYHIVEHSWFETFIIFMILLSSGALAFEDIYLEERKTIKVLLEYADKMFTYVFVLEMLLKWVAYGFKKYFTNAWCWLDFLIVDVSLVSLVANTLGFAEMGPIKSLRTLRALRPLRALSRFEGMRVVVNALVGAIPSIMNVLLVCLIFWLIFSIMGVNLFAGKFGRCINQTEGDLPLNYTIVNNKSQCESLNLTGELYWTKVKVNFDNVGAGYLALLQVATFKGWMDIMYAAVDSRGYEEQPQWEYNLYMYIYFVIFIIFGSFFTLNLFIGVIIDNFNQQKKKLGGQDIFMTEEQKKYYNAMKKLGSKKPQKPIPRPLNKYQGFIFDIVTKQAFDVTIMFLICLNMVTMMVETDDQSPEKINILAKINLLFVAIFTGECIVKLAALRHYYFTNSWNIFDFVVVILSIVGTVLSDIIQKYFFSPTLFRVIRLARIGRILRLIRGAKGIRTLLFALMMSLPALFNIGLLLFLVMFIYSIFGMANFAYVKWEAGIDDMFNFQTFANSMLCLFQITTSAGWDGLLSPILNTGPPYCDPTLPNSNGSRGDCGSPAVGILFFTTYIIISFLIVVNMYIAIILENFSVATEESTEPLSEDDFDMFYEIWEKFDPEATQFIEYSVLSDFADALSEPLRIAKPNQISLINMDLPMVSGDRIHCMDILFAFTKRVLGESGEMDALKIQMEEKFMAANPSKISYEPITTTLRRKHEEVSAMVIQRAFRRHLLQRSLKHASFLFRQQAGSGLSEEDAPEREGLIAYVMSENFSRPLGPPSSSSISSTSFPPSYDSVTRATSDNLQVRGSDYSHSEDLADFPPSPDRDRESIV
UniProt Q07699, 19-218 partner limits assumed: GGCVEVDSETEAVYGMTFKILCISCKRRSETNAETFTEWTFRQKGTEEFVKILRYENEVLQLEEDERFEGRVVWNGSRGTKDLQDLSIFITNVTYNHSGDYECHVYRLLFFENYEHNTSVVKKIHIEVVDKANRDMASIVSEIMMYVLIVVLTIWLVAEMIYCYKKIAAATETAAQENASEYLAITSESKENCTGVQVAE

Here are results for one compound from publication PMC9506549, “µ-Conotoxins Targeting the Human Voltage-Gated Sodium Channel Subtype NaV1.7” (2022).

The target in assay [1] is hNaV1.7 (Homo sapiens, UniProt Q15858). The assay can be described thus: Automated whole-cell patch-clamp electrophysiology, hNaV1.7/β1 in HEK293 cells. (In general: In patch-clamp work, channel activity is measured electrically.)
For assay [2], the target named is hNaV1.8 (Homo sapiens, UniProt Q9Y5Y9). The assay can be described thus: Automated whole-cell patch-clamp electrophysiology, hNaV1.8/β3 in CHO cells. The note with it: up to 1 µM; CHO hNaV1.8/β3, TTX 1 µM present, Figure S6.
Assay [3] deals with hNaV1.3 (Homo sapiens, UniProt Q9NY46). The assay can be described thus: Automated whole-cell patch-clamp electrophysiology, hNaV1.3/β1 in HEK293 cells. The note with it: read-out: IC50 NaV1.3; automated whole-cell patch-clamp (QPatch-16), HEK293 hNaV1.3/β1, 0.1% BSA, 5 min per concentration, 22 °C; mean ± SEM, n = 3–10 cells.
The target in assay [4] is hNaV1.2 (Homo sapiens, UniProt Q99250). The assay can be described thus: Automated whole-cell patch-clamp electrophysiology, hNaV1.2/β1 in HEK293 cells. The note with it: read-out: IC50 NaV1.2; automated whole-cell patch-clamp (QPatch-16), HEK293 hNaV1.2/β1, 0.1% BSA, 5 min per concentration, 22 °C; mean ± SEM, n = 3–10 cells.
Assay [5] has as its target hNaV1.4 (Homo sapiens, UniProt P35499). The assay can be described thus: Automated whole-cell patch-clamp electrophysiology, hNaV1.4/β1 in HEK293 cells. The settings on record: read-out: IC50 NaV1.4; automated whole-cell patch-clamp (QPatch-16), HEK293 hNaV1.4/β1, 0.1% BSA, 5 min per concentration, 22 °C; mean ± SEM, n = 3–10 cells.
Assay [6] has as its target hNaV1.5 (Homo sapiens, UniProt Q14524). The assay can be described thus: Automated whole-cell patch-clamp electrophysiology, hNaV1.5/β1 in HEK293 cells. The settings on record: up to 1 µM; HEK293 hNaV1.5/β1, Figure S6.

Turning to `N=C(N)NCCC[C@@H]1NC(=O)CNC(=O)[C@H](CC(N)=O)NC(=O)[C@@H]2CSSC[C@@H]3NC(=O)[C@H](CCCNC(=N)N)NC(=O)[C@H](CO)NC(=O)[C@H](Cc4c[nH]cn4)NC(=O)[C@H](CC(=O)O)NC(=O)[C@H](CCCNC(=N)N)NC(=O)[C@H](CSSC[C@H](NC(=O)[C@H](CCCNC(=N)N)NC(=O)[C@@H]4CCC(=O)N4)C(=O)N2)NC(=O)[C@H](Cc2c[nH]c4ccccc24)NC(=O)[C@H](CCCNC(=N)N)NC(=O)[C@H](CO)NC(=O)[C@H](CO)NC(=O)[C@H](CSSC[C@@H](C(N)=O)NC3=O)NC(=O)CNC(=O)[C@H](CCCNC(=N)N)NC1=O`, the “fold difference in inhibitory potency at hNaV1.7 between SmIIIA and KIIIA” value in assay [1] (SmIIIA more potent) was 9 fold and ~ 10 fold. Moreover, the IC50 was determined as 41 nM in assay [1] (read-out: IC50 NaV1.7, automated whole-cell patch-clamp (QPatch-16), HEK293 hNaV1.7/β1, 0.1% BSA, 5 min per concentration, 22 °C, mean ± SEM, n = 3–10 cells); 95 nM in assay [3]; 172 nM in assay [4]; 14 nM in assay [5]. Besides, in assay [2], the “inhibition of TTX-r hNaV1.8” value is “no inhibition”. Also, in assay [6], the “inhibition of TTX-r hNaV1.5” value is “minimal to no inhibition”.

By IC50 is commonly meant the point on the concentration scale where inhibition reaches its midpoint.
